Drawing on article PMC10100900, “Virtual Screening and In Vitro Experimental Verification of LuxS Inhibitors for Escherichia coli O157:H7” (Microbiology Spectrum, 2023), this text covers IC50 for 3 compounds.

SMILES strings stand for the structures.

The assay concerns the target LuxS of E. coli (Escherichia coli O157:H7, UniProt Q8X902). As to the kind of experiment: AI-2 bioluminescence assay (V. harveyi BB170 reporter) of AI-2 production. It counts as cell-based.
In the case of `CC(=O)N1CCc2cc(CNC(=O)c3cc4ccccc4[nH]3)ccc21`, the half-maximal inhibitory concentration (IC50) turned out to be 17.9 µM. `O=C(CNc1ccc2ccccc2c1)N/N=C/c1cc2c(cc1Br)OCO2` registered an IC50 of 23.7 µM. Turning to `O=C(NCc1ccc2c(c1)CCN2C(=O)c1ccccc1)c1cc2ccccc2[nH]1`, the IC50 worked out at 28.7 µM. This IC50 and that of the compound before are within 1.5-fold of each other.

As a reminder, the IC50 is the concentration at which inhibition is half-maximal. Read a high IC50 as a need for much substance.
